Results of unrelated studies side by side (data: NIAID ChemDB).

Common to all: cytotoxicity tests; cell line: VERO; measure: CC50

Rows are shuffled and stem from different studies. CCn: concentration that lowers growth or viability of the cells by n%.

SMILES | result
CC[C@@H](C(C)C)[C@@H](O)[C@H](O)[C@@H](C)[C@H]1CC[C@H]2[C@@H]3CC(=O)[C@H]4C[C@H](O)[C@H](O)C[C@]4(C)[C@H]3CC[C@]12C | 209 µM
COc1ccc(OC)c(/C=N/N=C(/N)NO)c1.Cc1ccc(S(=O)(=O)O)cc1 | 200 µM
CC(=O)OC[C@H]1O[C@@H](n2ncc(=O)[nH]c2=S)C(OC(C)=O)C1OC(C)=O | >320 µg/mL
CC(=O)OC1C(OC(C)=O)[C@@H](COS(=O)(=O)NC(C)C)O[C@H]1n1ccc(=O)[nH]c1=O | 352 µg/mL
CC(=O)OC[C@H]1O[C@@H](n2c(C(N)=S)cc(=O)[nH]c2=O)C(OC(C)=O)C1OC(C)=O | 940 µg/mL
O=C(N/N=C/c1ccc(Cl)cc1Cl)c1ccccc1SSc1ccccc1C(=O)N/N=C/c1ccc(Cl)cc1Cl | 363.2 µM
N[C@H]1C(=O)N[C@@H]2Cc3ccc(c(Cl)c3)Oc3cc4cc(c3O)Oc3ccc(cc3Cl)[C@@H](O)[C@@H]3NC(=O)[C@H](NC(=O)[C@@H]4NC(=O)[C@@H](NC2=O)c2cc(O)cc(c2)Oc2cc1ccc2O)c1ccc(O)c(c1)-c1c(O)cc(O)cc1[C@@H](C(=O)C1NCCC2CCCCC21)NC3=O | >100 µM
Cn1cc(C(=O)c2ccc(Cl)cc2)cc1/C=C/C(=O)O | 30 µg/mL
c1ccc(SSc2ccccn2)nc1 | >400 µM
CC[C@@H](C(C)C)[C@H](O)[C@@H](O)[C@@H](C)[C@H]1CC[C@H]2[C@@H]3CC(=O)[C@H]4C[C@@H](OC(C)=O)CC[C@]4(C)[C@H]3CC[C@]12C | 139 µM
Nc1nc2c(ncn2[C@@H]2O[C@H](CO)[C@@H](O)[C@@H]2O)c(=O)[nH]1 | >1000 µM
Cc1ccc(S(=O)(=O)O)cc1.N/C(=N/N=C/c1ccc2c(c1)OCO2)NO | 25 µM
Nc1nc(=O)n([C@@H]2C=C(CO)[C@@H](O)[C@H]2O)cc1F | 39 µg/mL
CC(C)[C@H](NC(=O)OCc1ccccc1)C(=O)NC(CCC(=O)N(C)C)C(=O)CF | >100 µM
CC[C@@H](C(C)C)[C@@H](O)[C@H](O)[C@@H](C)[C@H]1CC[C@H]2[C@@H]3CC(=O)[C@@]4(O)C[C@@H](OC(C)=O)CC[C@]4(C)[C@H]3CC[C@]12C | 230 µM
COc1cc(/C=N/N=C(/N)NO)cc(OC)c1OC.Cc1ccc(S(=O)(=O)O)cc1 | 25 µM
Cn1c(O)c(N=NC(N)=S)c2ccccc21 | >100 µg/mL
CC[C@@H](C(C)C)[C@H](O)[C@@H](O)[C@@H](C)[C@H]1CC[C@H]2[C@@H]3CC(=O)[C@@]4(O)C[C@@H](Br)CC[C@]4(C)[C@H]3CC[C@]12C | 277 µM
C#CCOc1cc(OC)ccc1-c1cc(N(CC)CC)no1 | 40 µM
CC1(C)OC2C(O1)[C@@H](COS(=O)(=O)NC(=O)O[C@H]1O[C@H](COCc3ccccc3)[C@@H](OCc3ccccc3)[C@H](OCc3ccccc3)[C@H]1OCc1ccccc1)O[C@H]2n1ccc(=O)[nH]c1=O | 44 µg/mL
Nc1ncnc2c1ncn2[C@@H]1O[C@H](CO)[C@@H](O)[C@@H]1O | 300 µM
CC(C)NS(=O)(=O)OC[C@H]1O[C@@H](n2ccc(=O)[nH]c2=O)C2OC(C)(C)OC21 | 304 µg/mL
O=c1cnn([C@@H]2O[C@H](CO)[C@@H](O)[C@H]2O)c(=O)[nH]1 | 8 µg/mL
CC(=O)O[C@H]1C[C@H](n2ccc(=O)[nH]c2=O)O[C@@H]1COS(=O)(=O)NC(=O)O[C@H]1O[C@H](COC(=O)c2ccccc2)[C@@H](OC(=O)c2ccccc2)[C@H](OC(=O)c2ccccc2)[C@H]1OC(=O)c1ccccc1 | 300 µg/mL
CC[C@@H](C(C)C)[C@H](O)[C@@H](O)[C@@H](C)[C@H]1CC[C@H]2[C@@H]3CC(=O)[C@H]4C[C@@H](Br)CC[C@]4(C)[C@H]3CC[C@]12C | 343 µM
OC(c1ccccc1)c1nc2cc(Cl)ccc2s1 | 500 µg/mL
N=c1c2ncn([C@@H]3O[C@H](CO)[C@@H](O)[C@H]3O)c2ncn1OCc1cc(F)cc(F)c1 | 75 µg/mL
C[C@@]1(O)[C@H](O)[C@@H](COP(=O)(O)OP(=O)(O)OP(=O)(O)O)O[C@H]1n1ccc2c(N)ncnc21 | >200 µM
CC(=O)OC[C@H]1O[C@@H](n2ncc(=S)[nH]c2=O)C(OC(C)=O)C1OC(C)=O | 376 µg/mL
Nc1nccc2c1ncn2[C@@H]1C[C@H](CO)[C@@H](O)[C@H]1O | >100 µg/mL
CN(C)c1ccc(C(=O)c2cc(/C=C/C(=O)O)n(C)c2)cc1 | 125 µg/mL
O=c1[nH]cnc2c1ccn2[C@@H]1O[C@H](CO)[C@@H](O)[C@H]1O | 32 µg/mL
Nc1ccn([C@@H]2O[C@H](CO)[C@@H](O)[C@@H]2O)c(=O)n1 | 0.8 µM
OC[C@H]1O[C@@H](n2ccc3c(Cl)ncnc32)[C@H](O)[C@@H]1O | 320 µg/mL
Nc1nccc2c1ncn2[C@@H]1C=C(CO)[C@@H](O)[C@H]1O | >100 µg/mL
Nc1nccc2c1ncn2[C@@H]1C=C(CO)[C@@H](O)[C@H]1O | 0.93 µg/mL
CC[C@@H](C(C)C)[C@H](O)[C@@H](O)[C@@H](C)[C@H]1CC[C@H]2[C@@H]3CC(=O)[C@@]4(O)C[C@H](O)[C@H](O)C[C@]4(C)[C@H]3CC[C@]12C | 364 µM
Nc1nc(=O)n([C@@H]2O[C@H](CO)[C@@H](O)[C@@H]2O)cc1Cl | >1000 µM
O=C(NS(=O)(=O)OC[C@H]1O[C@@H](n2ccc(=O)[nH]c2=O)[C@H](O)[C@@H]1O)O[C@@H]1C[C@@H](OC(=O)c2ccccc2)[C@H](OC(=O)c2ccccc2)[C@@H](COC(=O)c2ccccc2)O1 | 300 µg/mL
Cc1nc2c(N)ncnc2n1[C@@H]1O[C@H](CO)[C@@H](O)[C@H]1O | 515 µM
COc1cc2c(cc1OC)-c1c(OC)c(OC)cc3c1C(C2)N(C(C)=O)CC3 | 242 µM

Again, the opening 5 rows:

{"SMILES": "CC[C@@H](C(C)C)[C@@H](O)[C@H](O)[C@@H](C)[C@H]1CC[C@H]2[C@@H]3CC(=O)[C@H]4C[C@H](O)[C@H](O)C[C@]4(C)[C@H]3CC[C@]12C", "result": "209 µM"}
{"SMILES": "COc1ccc(OC)c(/C=N/N=C(/N)NO)c1.Cc1ccc(S(=O)(=O)O)cc1", "result": "200 µM"}
{"SMILES": "CC(=O)OC[C@H]1O[C@@H](n2ncc(=O)[nH]c2=S)C(OC(C)=O)C1OC(C)=O", "result": ">320 µg/mL"}
{"SMILES": "CC(=O)OC1C(OC(C)=O)[C@@H](COS(=O)(=O)NC(C)C)O[C@H]1n1ccc(=O)[nH]c1=O", "result": "352 µg/mL"}
{"SMILES": "CC(=O)OC[C@H]1O[C@@H](n2c(C(N)=S)cc(=O)[nH]c2=O)C(OC(C)=O)C1OC(C)=O", "result": "940 µg/mL"}